Assay results: patent US20140142352A1, “BUTANOL PURIFICATION” (BUTAMAX ADVANCED BIOFUELS LLC, priority 2012, published 2014)

What was measured:
anaerobic inoculum [1] = assay: Acetate Toxicity Assays (ATA); format: cell-based
Protocol: For the BMP tests, iBA provided the sole source of substrate over a range of conditions. Feed controls were prepared at organic loadings that spanned the lower and upper range of loadings used in the ATA and BMP tests, and gas production was monitored. Samples were prepared in triplicate with the seed concentration for all test bottles being 2000 mg/L. The feed control and ATA biodegradable synthetic feed composition contained 4000 mg/L acetate and 2000 mg/L propionate. The inorganic nutrient media used was similar to media presented in Table 5.1 of […], Anaerobic Biotechnology for Industrial […], Vanderbilt University, […], Nashville, p 115 (1996). The bottles were maintained at a temperature of 35° C.

anaerobic inoculum [2] = assay: Biological Methane Potential (BMP) test

For `CC(C)C(=O)O` [Isobutyric Acid, isobutyric acid], the COD removed (anaerobic inoculum [1]; ATA-syn + 550 ppm iBA) was 98%, the TOC removed (anaerobic inoculum [1]; ATA-syn + 550 ppm iBA) was 94% and the COD removed (anaerobic inoculum [1]; ATA-syn + 825 ppm iBA) was 97%. For the same compound, the TOC removed (anaerobic inoculum [1]; ATA-syn + 825 ppm iBA) was 95%, the COD removed (anaerobic inoculum [1]; ATA-syn + 1100 ppm iBA) was 98% and the TOC removed (anaerobic inoculum [1]; ATA-syn + 1100 ppm iBA) was 96%. For the same compound, the COD removed (anaerobic inoculum [2]; BMP 550 ppm iBA) was 92%, the TOC removed (anaerobic inoculum [2]; BMP 550 ppm iBA) was 85% and the COD removed (anaerobic inoculum [2]; BMP 1100 ppm iBA) was 97%. The TOC removed (anaerobic inoculum [2]; BMP 1100 ppm iBA) was 97%, the COD removed (anaerobic inoculum [2]; BMP 1650 ppm iBA) was 98% and the TOC removed (anaerobic inoculum [2]; BMP 1650 ppm iBA) was 92%. The COD removed (anaerobic inoculum [2]; BMP 2200 ppm iBA) was 98%, the TOC removed (anaerobic inoculum [2]; BMP 2200 ppm iBA) was 97% and the anaerobic biodegradability (anaerobic inoculum [2]; BMP tests) was “biodegradable”.
